# Measured data: PubChem BioAssay AID1259414 (Drosophila RNAi Screening Center, 2018)
# Aim: 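Fly genes that alter Wolbachia amount inside host cells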 (primary screen)
# Cells: Drosophila JW18 cells infected with Wolbachia
# Reagent: long dsRNA against Drosophila genes, 0.25 µg dsRNA per well of a 384-well plate
# Duration: 5 days
# Treatment: cells persistently infected with Wolbachia before knock-down; no added drug
# Measured: 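Automated imaging of bacterial rRNA staining divided by host cell count, reported as plate-normalised robust z-score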
# Scale: Wolbachia per cell robust z: higher = more Wolbachia per host cell than the plate typical
# Call rule: 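Hit when robust z is 1.5 or more, or -1.5 or less, in at least two of three replicates; excludes dsRNAs with several or no targets, genes not expressed in JW18 and well A1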
# The screen tested about 24,000 reagents; below is a random part of those with a known target gene and a result. Over the whole deposit, about 1,210 (5%) are marked active. 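Inactive calls also include excluded dsRNAs with several or no targets, genes unexpressed in JW18, and well A1, regardless of score.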 Names joined by + are all predicted targets of the reagent.
gene knocked down,dsRNA,"Wolbachia per cell robust z, rep 1","Wolbachia per cell robust z, rep 2","Wolbachia per cell robust z, rep 3",Call
CG3748,DRSC02716,0.413,-0.786,-0.179,inactive
CG3748,DRSC29984,0.0124,-0.64,-0.147,inactive
CG3748,DRSC39015,0.861,0.501,0.00771,inactive
Qtzl,DRSC01221,0.215,0.529,0.329,inactive
Fie,DRSC08158,-3.45,-6.48,-5.86,inactive
U2af50,DRSC20297,1.96,1.3,5.37,active
U2af50,DRSC22867,0.602,0.0798,-0.235,inactive
Csk,DRSC12861,-0.152,-0.156,0.199,inactive
Csk,DRSC23272,0.151,0.342,1.06,inactive
Csk,DRSC26697,0.638,0.781,-0.703,inactive
Reps,DRSC02940,-1.05,-8.24,-0.353,inactive
Start1,DRSC04384,-5.02,0.0974,-2.19,active
Start1,DRSC28343,-1.54,1.57,0.628,inactive
lectin-28C,DRSC03010,-3.08,-0.278,-2.08,inactive
lectin-28C,DRSC26982,-1.09,-1.12,1.09,inactive
Neu2,DRSC11819,-0.332,-8.98,0.0765,inactive
Neu2,DRSC26795,0.57,0.743,0.241,inactive
CG8209,DRSC10970,0.385,0.506,0.186,inactive
CG8209,DRSC28217,0.759,-0.942,-0.0206,inactive
CG14770,DRSC17947,1.23,-0.375,-2.8,inactive
Mkp + CG34140,DRSC08585,-5.9,0.557,-0.767,inactive
Mpcp1,DRSC07337,-2.34,1.14,0.244,inactive
Prp4k,DRSC08144,0.0696,1.03,-0.18,inactive
Prp4k,DRSC27510,0.409,-1.32,0.471,inactive
Nach,DRSC07478,-3.61,0.354,-2.53,inactive
msl-1,DRSC03573,2.43,1.61,1.43,active
Fbxo42,DRSC04529,-1.39,-0.117,-0.546,inactive
Fbxo42,DRSC29911,0.83,0.574,0.623,inactive
CR42490,DRSC01649,0.219,0.487,-8.5,inactive
CR42490,DRSC28297,0.682,-0.248,0.366,inactive
grp,DRSC40694,0.0148,0.217,0.317,inactive
ftz,DRSC12626,-0.139,-1.84,-0.0515,inactive
ftz,DRSC28088,0.982,0.104,1.17,inactive
ftz,DRSC40856,0.358,0.302,0.422,inactive
cold,DRSC00538,1.28,-0.409,0.448,inactive
Mppe,DRSC07296,0.687,0.0464,-0.459,inactive
Jheh1,DRSC06529,0.564,0.819,0.447,inactive
Jheh1,DRSC25526,-0.733,-0.77,-0.423,inactive
Rbsn-5,DRSC03094,-0.552,-0.912,-1.43,inactive
Rbsn-5,DRSC27756,-0.354,-1.25,-1.96,inactive
CG14346,DRSC00376,0.344,-0.769,-1.36,inactive
CG14346,DRSC27555,0.673,1.73,0.29,inactive
CG11414,DRSC04110,-1.36,-0.149,-1.95,inactive
RnpS1,DRSC15154,0.851,1.52,2.27,active
CG12909,DRSC06224,-0.196,-0.395,0.0844,inactive
CG12909,DRSC27706,-1.14,-0.415,-0.409,inactive
yellow-d2,DRSC04591,0.681,0.366,-3.64,inactive
mod(mdg4),DRSC13478,1.27,1.93,0.0543,inactive
mod(mdg4),DRSC15042,-1.17,0.507,0.376,inactive
mod(mdg4),DRSC17000,-0.852,0.546,-0.566,inactive
Or65c,DRSC21312,-0.844,-0.27,-1.27,inactive
frm,DRSC09753,0.731,0.282,0.654,inactive
frm,DRSC25370,-0.159,-0.803,-1.03,inactive
frm,DRSC39047,-0.0332,0.742,-2.24,inactive
ema,DRSC14536,-1.56,-4.98,0.279,active
Atg2,DRSC08273,-0.175,-0.808,-0.203,inactive
hid,DRSC11316,-3.88,0.26,0.342,inactive
hid,DRSC25461,0.639,-0.315,-1.05,inactive
Aplip1,DRSC08697,0.738,-2.83,-1.62,active
Aplip1,DRSC21587,-2.7,-0.199,-1.76,active
Aplip1,DRSC26312,-0.153,-0.435,1.27,inactive
CG5235,DRSC10494,-1.59,-0.893,-0.611,inactive
CG5854,DRSC15894,0.481,0.547,0.909,inactive
CG5854,DRSC28599,-5.5,-1.19,-0.462,inactive
CG42371 + CG15386,DRSC00400,-5.92,-2.27,-0.784,inactive
mRpL2,DRSC10896,-0.562,-0.19,-4.98,inactive
CG33635,DRSC37906,0.523,0.887,0.536,inactive
Ugt35A1,DRSC16892,0.527,0.956,-0.781,inactive
Ugt35A1,DRSC25438,0.528,0.686,0.352,inactive

Active calls, among the entries above:
gene knocked down,dsRNA,"Wolbachia per cell robust z, rep 1","Wolbachia per cell robust z, rep 2","Wolbachia per cell robust z, rep 3",Call
U2af50,DRSC20297,1.96,1.3,5.37,active
Start1,DRSC04384,-5.02,0.0974,-2.19,active
msl-1,DRSC03573,2.43,1.61,1.43,active
RnpS1,DRSC15154,0.851,1.52,2.27,active
ema,DRSC14536,-1.56,-4.98,0.279,active
Aplip1,DRSC08697,0.738,-2.83,-1.62,active
Aplip1,DRSC21587,-2.7,-0.199,-1.76,active
